Measured values from several laboratories, pooled; numbers as filed in NIAID ChemDB.

Common to all: enzyme or target tests; species: HIV-1; target: Protease

a–b is a range or a potency band. Lines come from different laboratories, so protocols vary. ICn: concentration for n% inhibition. An empty or dashed field is not shown.

smiles	method	conditions	strain	read-out	value
O=C(N[C@H]1c2ccccc2C[C@H]1O)[C@H](Cc1ccccc1)C[C@H](O)CN1C(=O)[C@@H](Cc2ccccc2)C[C@@H]1Cc1ccccc1	-	-	-	Ki	0.000067 µM
CC(C)[C@H](NC(=O)OC(C)(C)C)C(=O)N[C@@H](Cc1ccc(OCc2ccccc2)cc1)C(=O)C(F)(F)C(=O)NCc1ccccc1	HPLC	-	-	IC50	1 µM
CCCOc1ccc(C[C@H](NC(=O)c2cccc(O)c2C)[C@H](O)C(=O)N2CSC(C)(C)[C@H]2C(=O)NCc2ccccc2C)cc1	HPLC	-	-	IC50	<0.05 µg/mL
CC(C)CC(SCc1ccccc1)c1c(O)cc(-c2ccccc2)oc1=O	HPLC	pH 6.2	-	IC50	0.3 µM
CC(C)(C)OC(=O)N[C@@H](Cc1ccc(O)cc1)[C@@H](O)C[C@@H](Cc1ccc(O)cc1)C(=O)N[C@H]1c2ccccc2C[C@H]1O	HPLC	-	-	IC50	0.0001–0.01 µM
Cc1cn([C@@H]2C[C@@H](N=[N+]=[N-])[C@H](COC(=O)C(C)C(C)C(=O)N[C@@H](Cc3ccccc3)[C@H](O)C(=O)N3CSC[C@H]3C(=O)NC(C)(C)C)O2)c(=O)[nH]c1=O	-	-	IIIB	IC50	>5 µM
CCCC1(CCc2ccccc2)CC(O)=C(C(c2cccc(NS(=O)(=O)c3ccc(C#N)cn3)c2)C(C)(C)C)C(=O)O1	-	-	-	Ki	0.00019 µM
Cc1cccc(C)c1CNC(=O)[C@H]1N(C(=O)[C@@H](O)[C@H](Cc2ccc3c(c2)OCO3)NC(=O)c2cccc(N)c2Cl)CSC1(C)C	HPLC	-	-	IC50	<0.05 µg/mL
CC(C)(C)NC(=O)[C@@H]1C[C@@H]2CCCC[C@@H]2N1C(=O)[C@@H](O)[C@H](Cc1ccccc1)NC(=O)[C@H](CC(N)=O)NC(=O)COc1cccc2ccccc12	substrate cleavage	-	BRU	IC50	0.0011 µM
CC(C)N(CC(=O)NC12NC(=O)C3(O)C4C5CC(C6C5C3C61)C42)C(=O)CN(C)C(=S)Cc1ncccn1	absorbance	-	-	IC50	5 µM
COc1ccc(C[C@H](NC(=O)c2cccc(N)c2Cl)[C@H](O)C(=O)N2CSC(C)(C)[C@H]2C(=O)NCc2c(C)cccc2C)cc1	HPLC	-	-	IC50	<0.05 µg/mL
O=c1cc(O)c2ccccc2o1	HPLC	pH 5.2	-	IC50	160 µM
CCCC1(CCc2ccccc2)CC(O)=C(C(c2cccc(NS(=O)(=O)c3ccc(C#N)cn3)c2)C2CC2)C(=O)O1	-	-	-	Ki	0.000007 µM
COc1ccc(C[C@H](NC(=O)c2cccc(O)c2C)[C@H](O)C(=O)N2CSC(C)(C)[C@H]2C(=O)NCc2cc(F)ccc2C)cc1	HPLC	-	-	IC50	<0.05 µg/mL
Cc1cccc(-c2cc(O)c(Sc3ccccc3C(C)(C)C)c(=O)o2)c1	HPLC	pH 4.7	-	Ki	0.003 µM
CC(C)[C@H](NC(=O)[C@@H](NC(=O)C(Cc1ccccc1)CP(=O)(O)C(Cc1ccccc1)NC(=O)[C@@H](NC(=O)[C@@H](NC(=O)OC(C)(C)C)C(C)C)C(C)C)C(C)C)C(N)=O	-	pH 6.5	-	Ki	0.0004 µM
CC(C)(C)NC(=O)[C@@H]1CSCN1C(=O)[C@@H](O)[C@H](Cc1ccccc1)NC(=O)CC(C)(C)C(=O)O	-	-	IIIB	IC50	<5 µM
CCCCNC(=O)C1(C)OC(=O)C(CCc2ccccc2)=C1O	fluorescence	-	-	IC50	>100 µM
CC(=O)O[C@@H]1C(=O)C2=C(C(=O)C[C@H]3C(C)(C)[C@@H](O)CC[C@]23C)[C@]2(C)C(=O)C[C@H]([C@@H](C)CC(=O)C[C@@H](C)C(=O)O)[C@@]12C	-	-	-	IC50	200 µM
CC(C)[C@H](NC(=O)[C@@H](NC(=O)C(Cc1ccccc1)CP(=O)(O)C(Cc1ccccc1)NC(=O)c1ccccc1)C(C)C)C(N)=O	-	pH 4.5	-	Ki	0.0006 µM
CC(C)(C)OC(=O)N[C@@H](Cc1ccccc1)[C@H](O)CNC[C@@H](O)[C@H](Cc1ccccc1)NC(=O)[C@](C)(O)c1ccccc1	HPLC	pH 5.5	-	IC50	<10 µM
CC(C)[C@H](NC(=O)[C@@H](NC(=O)C1CCCC1P(=O)(O)C(Cc1ccccc1)NC(=O)OCc1ccccc1)C(C)C)C(N)=O	-	pH 4.5	-	Ki	0.005 µM
Cc1ccccc1CNC(=O)[C@H]1N(C(=O)[C@@H](O)[C@H](Cc2ccc(OC(C)C)cc2)NC(=O)c2cccc(O)c2C)CSC1(C)C	HPLC	-	-	IC50	<0.05 µg/mL
CC(C)(C)OC(=O)N[C@@H](Cc1ccccc1)[C@@H](O)C[C@@H](Cc1ccc(O)cc1)C(=O)N[C@H]1c2ccccc2C[C@H]1O	HPLC	-	-	IC50	0.0001–0.01 µM
CCC(=O)N[C@@H](CSCCOCCOCCSC[C@H](NC(=O)CC)C(=O)N[C@@H](CC(C)C)C(=O)N[C@@H](Cc1ccccc1)C(N)=O)C(=O)N[C@@H](Cc1ccccc1)C(=O)O	-	-	-	IC50	150 µM
CCc1c(O)cc(-c2ccccc2)oc1=O	HPLC	pH 5.2	-	IC50	11 µM
COc1ccc(C[C@H](NC(=O)c2cccc(O)c2C)[C@H](O)C(=O)N2CSC(C)(C)[C@H]2C(=O)NCc2ccccc2C)cc1	HPLC	-	-	IC50	<0.05 µg/mL
[Cl][Au-]([Cl])([Cl])[Cl].[Na+]	fluorescence	-	SF2	IC50	14.4 µM
COc1ccc(S(=O)(=O)N(CC(C)C)CC(O)C(NC(=O)c2cccc(N)c2C)Sc2ccccc2)cc1	-	-	BRU	IC50	0.01–1 µM
CCCCCCCCCCCCCCCCCCCCCCC(=O)O[C@@H]1[C@@H](C)[C@@]2(O)[C@@H](C=C(COC(C)=O)C[C@]3(O)C(=O)C(C)=C[C@@H]23)[C@@H]2C(C)(C)[C@]12O	substrate cleavage / fluorescence	-	-	IC50	>67.5 µM
CC(C)(C)OC(=O)NCCC(=O)Nc1cccc(C(c2c(O)c3c(oc2=O)CCCCCC3)C2CC2)c1	-	-	-	Ki	0.015 µM
CC1(C)S[C@H]([C@H](NC(=O)Cc2ccccc2)C(=O)NCc2ccccc2)N[C@H]1C(=O)NCCNC(=O)[C@@H]1N[C@@H]([C@H](NC(=O)Cc2ccccc2)C(=O)NCc2ccccc2)SC1(C)C	radiometric	-	RF	IC50	0.9 µM
CCCCNC(=O)[C@H](C)C[C@H](O)[C@H](CC1CCCCC1)NC(=O)[C@@H](NC(=O)[C@H](CCCN=C(N)N[N+](=O)[O-])NC(=O)OC(C)(C)C)C(C)C	-	-	-	Ki	0.145 µM
C[C@H](CCC=C(CO)CO)[C@H]1C[C@H](O)[C@@]2(C)C3=CC[C@H]4C(C)(C)C(=O)CC[C@]4(C)C3=CC[C@]12C	-	-	-	IC50	170 µM
CC(C(=O)O)C(C)C(=O)N[C@@H](Cc1ccccc1)[C@H](O)C(=O)N1CSC[C@H]1C(=O)NC(C)(C)C	-	-	IIIB	IC50	<5 µM
CCC(C)[C@H](NC(=O)[C@H](C(C)C)[C@@H](O)[C@H](O)[C@H](CC1CCCCC1)NC(=O)c1ccccc1OCCCCC[C@@H]1SC[C@@H]2NC(=O)NC21)C(=O)NCc1ccccn1	-	-	-	Ki	0.053 µM
CC(C)(C)OC(=O)N[C@@H](Cc1ccccc1)[C@H](O)CNC[C@@H](O)[C@H](Cc1ccccc1)NC(=O)OC(C)(C)CCCN	HPLC	pH 5.5	-	IC50	10 µM
O=C(NC(Cc1ccccc1)P(=O)(O)CC(Cc1ccccc1)C(=O)O)c1ccccc1	-	pH 6.5	-	Ki	26 µM
CC(C)(C)OC(=O)N1CCC[C@H]1[C@H](O)CNC[C@H](O)[C@@H]1CCCN1C(=O)OC(C)(C)C	HPLC	pH 5.5	-	IC50	>10 µM
CC[C@H](C)[C@H](NC(=O)CNC(=O)CSC[C@@H]1CC[N+]2=C(N[C@H](CO[Si](c3ccccc3)(c3ccccc3)C(C)(C)C)CC2)N1)C(=O)N[C@@H](CO)C(=O)N[C@@H](Cc1ccc(O)cc1)C(=O)N[C@@H](CC(N)=O)C(=O)N[C@@H](CC(C)C)C(=O)OC	fluorescence	-	-	IC50	5 µM
CC(C)(C)NC(=O)[C@H]1N(C(=O)[C@@H](O)[C@H](Cc2ccccc2)NC(=O)CC(C)(C)C(=O)O)CSC1(C)C	-	-	IIIB	IC50	<5 µM
CO[C@@H]1C=C2C3CC[C@H]([C@H](C)/C=C/C(C)C(C)C)[C@@]3(C)CCC2[C@@]2(C)CC[C@H](O)C[C@]12O	-	-	-	IC50	>1000 µM
CC(C)(C)OC(=O)N[C@@H](Cc1ccc(O)cc1)[C@@H](O)C[C@@H](Cc1ccccc1)C(=O)N[C@H]1c2ccccc2C[C@H]1O	HPLC	-	-	IC50	0.0001–0.01 µM
Cc1cc(SC2=C(O)CC(CCc3ccccc3)(C(C)C)OC2=O)c(C(C)(C)C)cc1OCCO	HPLC	-	-	IC50	0.00257 µM
O=c1oc2c(-c3ccccc3)cccc2c(O)c1Cc1ccccc1	HPLC	pH 5.2	-	IC50	8.1 µM
CCCCNC(=O)[C@H](C)C[C@H](O)[C@H](CC1CCCCC1)NC(=O)[C@@H](NC(=O)[C@H](CCC(N)=O)NC(=O)OC(C)(C)C)C(C)C	-	-	-	Ki	0.056 µM
O=S1(=O)N(Cc2cccc(I)c2)[C@H](COc2ccccc2)[C@H](O)[C@@H](O)[C@@H](COc2ccccc2)N1Cc1cccc(I)c1	-	-	-	Ki	0.0125 µM
[Cl][Fe][Cl]	fluorescence	-	SF2	IC50	>1000 µM
CC(C)(C)NC(=O)[C@@H]1[C@H]2CCCC[C@H]2CN1C(=O)[C@@H](O)[C@H](Cc1ccccc1)NC(=O)[C@H](CC(N)=O)NC(=O)COc1cccc2ccccc12	substrate cleavage	-	BRU	IC50	0.00026 µM
CC(C)[C@H](NC(=O)[C@@H](O)Cc1ccccc1)C(=O)N[C@@H](Cc1ccccc1)[C@H](O)CNC[C@@H](O)[C@H](Cc1ccccc1)NC(=O)OC(C)(C)C	HPLC	pH 5.5	-	IC50	<10 µM
CC(C)(C)OC(=O)N[C@@H](Cc1ccccc1)[C@@H](O)C[C@@H](Cc1ccccc1)C(=O)NCc1ccccc1	HPLC	-	-	IC50	0.12 µM
CCCC1(CCC)CC(O)=C(C(CC)c2cccc(NS(=O)(=O)c3cn(C)cn3)c2)C(=O)O1	-	-	-	Ki	0.000007 µM
O=c1oc2ccccc2c(O)c1Cc1ccccc1	HPLC	pH 5.2	-	IC50	120 µM
CC(C)(C)NC(=O)[C@@H]1CCCN1C(=O)[C@@H](O)[C@H](Cc1ccccc1)NC(=O)[C@H](CC(N)=O)NC(=O)COc1cccc2ccccc12	substrate cleavage	-	BRU	IC50	0.00058 µM
CC(C)[C@H](NC(=O)COc1ccccc1)C(=O)N[C@@H](Cc1ccccc1)[C@H](O)[C@H]1O[C@@H]1CNC(=O)COc1ccccc1	fluorescence	-	-	IC50	39 µM
Cc1ccccc1CNC(=O)[C@H]1N(C(=O)[C@@H](O)[C@H](Cc2ccc(Cl)cc2)NC(=O)c2cccc(O)c2C)CSC1(C)C	HPLC	-	-	IC50	<0.05 µg/mL
CC(C)(C)NC(=O)[C@@H]1C[C@@H]2CCCC[C@@H]2N1C(=O)[C@@H](O)[C@H](Cc1ccccc1)NC(=O)[C@H](CC(N)=O)NC(=O)COc1ccccc1	substrate cleavage	-	BRU	IC50	0.0019 µM
CCCC1(CCc2ccccc2)CC(O)=C(C(c2cccc(NS(=O)(=O)c3cn(C)cn3)c2)C(C)(C)C)C(=O)O1	-	-	-	Ki	0.00005 µM
CCCCNC(=O)[C@H](C)C[C@H](O)[C@H](CC1CCCCC1)NC(=O)[C@@H](NC(=O)[C@H](CCC(N)=O)NC(=O)OC(C)(C)C)[C@@H](C)CC	-	-	-	Ki	0.15 µM
CC(NC(=O)OCc1ccccc1)C(=O)NC(C(=O)NC12NC(=O)C3(O)C4C5CC(C6C5C3C61)C42)C(C)C	absorbance	-	-	IC50	0.6 µM
CC(C)(C)OC(=O)N[C@@H](Cc1ccccc1)[C@@H](O)CNC[C@H](O)[C@H](Cc1ccccc1)NC(=O)OC(C)(C)C	HPLC	pH 5.5	-	IC50	>10 µM
O=S1CC(CO)(Cc2ccccc2)C(O)C(CO)(Cc2ccccc2)C1	-	-	-	Ki	<25 µM
CC(N)C(=O)NC(C(=O)NC12NC(=O)C3(O)C4C5CC(C6C5C3C61)C42)C(C)C	absorbance	-	-	IC50	0.75 µM
CCC(C1=C(O)CC(CC(C)C)(CC(C)C)OC1=O)c1cccc(NS(=O)(=O)c2ccc(C#N)cn2)c1	-	-	-	Ki	0.00005 µM
COC(=O)N[C@H](C(=O)N[C@@H](Cc1ccccc1)[C@H](O)CNC[C@@H](O)[C@H](Cc1ccccc1)NC(=O)[C@@H](NC(=O)OC)C(C)(C)C)C(C)(C)C	HPLC	pH 5.5	-	IC50	<10 µM
C[C@H](CC(=O)C[C@@H](C)[C@H]1C[C@H](O)[C@@]2(C)C3=C(C(=O)C[C@]12C)[C@@]1(C)CCC(=O)C(C)(C)[C@@H]1C[C@@H]3O)C(=O)O	-	-	-	IC50	>1000 µM

Repeating the final 5 entries:

smiles | method | conditions | strain | read-out | value
O=S1CC(CO)(Cc2ccccc2)C(O)C(CO)(Cc2ccccc2)C1 | - | - | - | Ki | <25 µM
CC(N)C(=O)NC(C(=O)NC12NC(=O)C3(O)C4C5CC(C6C5C3C61)C42)C(C)C | absorbance | - | - | IC50 | 0.75 µM
CCC(C1=C(O)CC(CC(C)C)(CC(C)C)OC1=O)c1cccc(NS(=O)(=O)c2ccc(C#N)cn2)c1 | - | - | - | Ki | 0.00005 µM
COC(=O)N[C@H](C(=O)N[C@@H](Cc1ccccc1)[C@H](O)CNC[C@@H](O)[C@H](Cc1ccccc1)NC(=O)[C@@H](NC(=O)OC)C(C)(C)C)C(C)(C)C | HPLC | pH 5.5 | - | IC50 | <10 µM
C[C@H](CC(=O)C[C@@H](C)[C@H]1C[C@H](O)[C@@]2(C)C3=C(C(=O)C[C@]12C)[C@@]1(C)CCC(=O)C(C)(C)[C@@H]1C[C@@H]3O)C(=O)O | - | - | - | IC50 | >1000 µM